Anti-infective test results gathered from many reports (values: NIAID ChemDB through PubChem).

Shared fields: target-level tests

An empty or dashed field is not shown. Inhibition is in % at the dose shown (toxicity tests: loss of growth or viability). Neighbouring rows are from separate reports. ICn is the concentration giving n% inhibition.

structure	target	strain	read by	measure	species	dose	result
CCOc1ccc2cc(-n3nncc3COc3nc(-c4cccnc4)sc3C(=O)O)c(=O)oc2c1	DNA gyrase		gel / absorbance	IC50	Mycobacterium tuberculosis		10.6 µM
Cc1ccc(C2NC(=O)N=C3C2C(=O)N=C2SC([N+](=O)[O-])=CN23)cc1	CysK1		absorbance	inhibition	Mycobacterium tuberculosis	100 µM	42.3%
C=CN(O)C[C@@H](CCCC)C(=O)N[C@H](C(=O)N(C)C)C(C)(C)C	Peptide deformylase			IC50	Mycobacterium tuberculosis		23.9 µM
O=c1oc(Cc2ccccc2)ns1	Proteasome		broth dilution / fluorescence	IC50	Mycobacterium tuberculosis		>100 µM
COc1c(N2CCNC(C)C2)c(F)cc2c(=O)c(C(=O)O)cn(C3CC3)c12	DNA gyrase	H37Rv	gel	IC50	Mycobacterium tuberculosis		3 µg/mL
O=C1N=C2C(C(=O)N=C3SC([N+](=O)[O-])=CN32)C(c2ccccc2[N+](=O)[O-])N1	CysK1		absorbance	inhibition	Mycobacterium tuberculosis	100 µM	7%
Nc1nc(N)nc(-c2ccc(OCc3cccc(Cl)c3)cc2)n1	Dihydrofolate reductase		absorbance	IC50	Mycobacterium tuberculosis		5.62 µM
O=Cc1sc(-c2ccccc2)nc1OCc1cnnn1-c1cc2ccc(O)cc2oc1=O	DNA gyrase		gel / absorbance	IC50	Mycobacterium tuberculosis		>25 µM
Nc1nc(N)c2cc(CN3c4ccccc4C=Cc4ccccc43)cnc2n1	DHFR			IC50	Mycobacterium avium		0.027 µM
CCn1cc(C(=O)O)c(=O)c2cc(F)c(N3CCNCC3)nc21	DNA gyrase	H37Rv	gel	IC50	Mycobacterium tuberculosis		50 µg/mL
COc1cc(C2NC(=O)N=C3C2C(=O)N=C2SC([N+](=O)[O-])=CN23)ccc1O	CysK1		absorbance	inhibition	Mycobacterium tuberculosis	100 µM	9.5%
COC(=O)c1sc(-c2ccncc2)nc1OCc1cnnn1-c1cc2ccc(N)cc2oc1=O	DNA gyrase		gel / absorbance	IC50	Mycobacterium tuberculosis		13.3 µM
Nc1nc(N)c2cc(NC3c4ccccc4C=Cc4ccccc43)ccc2n1	DHFR			IC50	Mycobacterium avium		16 µM
O=c1onc(-c2ccccc2)o1	Proteasome		broth dilution / fluorescence	IC50	Mycobacterium tuberculosis		31.5 µM
CN(C[C@H](O)[C@H](O)[C@H](O)CO)c1[nH]c(=O)[nH]c(=O)c1N	Lumazine synthase			Ki	Mycobacterium tuberculosis		341 µM
NC1[C@H]2CN(c3nc4c(cc3F)c(=O)c(C(=O)O)cn4-c3ccc(F)cc3F)C[C@@H]12	DNA gyrase	H37Rv	gel	IC50	Mycobacterium tuberculosis		15 µg/mL
O=c1oc(/C=C/c2ccccn2)ns1	Proteasome		broth dilution / fluorescence	IC50	Mycobacterium tuberculosis		2.35 µM
Cc1ccc2c3c1C(CN)OB3OCCO2	Leucyl-tRNA synthetase		radiometric	IC50	Mycobacterium tuberculosis		0.33 µM
O=C1N=C2C(C(=O)N=C3SC([N+](=O)[O-])=CN32)C(c2ccc(Br)cc2)N1	CysK1		absorbance	inhibition	Mycobacterium tuberculosis	100 µM	10.9%
Nc1ccc2cc(-n3nncc3COc3nc(-c4cccnc4)sc3C=O)c(=O)oc2c1	DNA gyrase		gel / absorbance	IC50	Mycobacterium tuberculosis		1.7 µM
C[C@@H]1CN(c2c(F)c(N)c3c(=O)c(C(=O)O)cn(C4CC4)c3c2F)C[C@H](C)N1	Gyrase			IC50	Mycobacterium tuberculosis		4.8 µg/mL
COC(=O)c1sc(-c2cccnc2)nc1OCc1cnnn1-c1cc2ccc(O)cc2oc1=O	DNA gyrase		gel / absorbance	IC50	Mycobacterium tuberculosis		12.4 µM
Cc1cn([C@@H]2O[C@H](CO)[C@@H](N=[N+]=[N-])[C@H]2F)c(=O)[nH]c1=O	Thymidylate kinase			Ki	Mycobacterium tuberculosis		118 µM
O=c1[nH]c(=O)n([C@H]2C[C@H](O)[C@@H](CO)O2)cc1/C=C/Br	Thymidylate kinase			Ki	Mycobacterium tuberculosis		900 µM
C[C@H]1NCc2cc(-c3ccc4c(=O)c(C(=O)O)cn(C5CC5)c4c3OC(F)F)ccc21	DNA gyrase	H37Rv	gel	IC50	Mycobacterium tuberculosis		13 µg/mL
O=C(N/N=C/c1ccc(O)c([N+](=O)[O-])c1)c1ccc(S(=O)(=O)NC[C@H]2O[C@@H](n3ccc(=O)[nH]c3=O)[C@H](O)[C@@H]2O)cc1	UDP-galactopyranose mutase			IC50	Mycobacterium tuberculosis		>100 µM
CCN(CC)CCOC(=O)C(Cc1cccc2ccccc12)CC1CCCO1	Pantothenate synthetase			Ki	Mycobacterium tuberculosis		75 µM
Nc1ccc2nccc(-n3cncn3)c2c1	CYP121		absorbance	Ki	Mycobacterium tuberculosis		50 µM
Cc1ccccc1/C=C/c1nsc(=O)o1	Proteasome		broth dilution / fluorescence	IC50	Mycobacterium tuberculosis		22 µM
O=Cc1cc([N+](=O)[O-])cc([N+](=O)[O-])c1O	UDP-galactopyranose mutase			IC50	Mycobacterium tuberculosis		>100 µM
Cc1[nH]n(-c2ccccc2)c(=O)c1Sc1ccc(Cl)cc1Cl	Phosphopantothenoyl-L-cysteine synthetase		fluorescence	IC50	Mycobacterium tuberculosis		3.2 µM
O=c1oc(Cc2ccccc2C(F)(F)F)ns1	Proteasome		broth dilution / fluorescence	IC50	Mycobacterium tuberculosis		>100 µM
O=c1ccn([C@H]2C[C@H](O)[C@@H](COP(=O)(O)O)O2)c(=O)[nH]1	Thymidylate kinase			Ki	Mycobacterium tuberculosis		280 µM
O=C1N=C2C(C(=O)N=C3SC([N+](=O)[O-])=CN32)C(c2ccc(F)cc2)N1	CysK1		absorbance	inhibition	Mycobacterium tuberculosis	100 µM	0%
Cc1cn([C@@H]2O[C@H](CO)[C@@H](N)[C@H]2F)c(=O)[nH]c1=O	Thymidylate kinase			Ki	Mycobacterium tuberculosis		190 µM
Nc1ncnc2c1c(-c1cccs1)cn2[C@@H]1O[C@H](CO)[C@@H](O)[C@H]1O	Adenosine kinase			IC50	Mycobacterium tuberculosis		6.6 µM
Cc1cn([C@@H]2O[C@H](CO)[C@@H](N)[C@@H]2O)c(=O)[nH]c1=O	Thymidylate kinase			Ki	Mycobacterium tuberculosis		1260 µM
O=C(N[C@H]1[C@@H](OC2C[C@H](CO)[C@@H](O)[C@@H](O)[C@H]2O)O[C@H](CO)[C@@H](O)[C@@H]1O)c1ccc(Sc2ccc(Cl)cc2)nc1	MYCOTHIOL-S-CONJUGATE AMIDASE			inhibition	Mycobacterium tuberculosis	50 µM	10%
COC(=O)c1sc(-c2ccccn2)nc1OCc1cnnn1-c1cc2ccc(O)cc2oc1=O	DNA gyrase		gel / absorbance	IC50	Mycobacterium tuberculosis		15.6 µM
O=C1N=C2SC([N+](=O)[O-])=CN2C2=NC(=S)NC(c3ccccc3O)C12	CysK1		absorbance	inhibition	Mycobacterium tuberculosis	100 µM	31.2%

5 of the rows above, restated:

structure | target | strain | read by | measure | species | dose | result
O=C(N/N=C/c1ccc(O)c([N+](=O)[O-])c1)c1ccc(S(=O)(=O)NC[C@H]2O[C@@H](n3ccc(=O)[nH]c3=O)[C@H](O)[C@@H]2O)cc1 | UDP-galactopyranose mutase |  |  | IC50 | Mycobacterium tuberculosis |  | >100 µM
O=c1oc(Cc2ccccc2C(F)(F)F)ns1 | Proteasome |  | broth dilution / fluorescence | IC50 | Mycobacterium tuberculosis |  | >100 µM
COC(=O)c1sc(-c2ccncc2)nc1OCc1cnnn1-c1cc2ccc(N)cc2oc1=O | DNA gyrase |  | gel / absorbance | IC50 | Mycobacterium tuberculosis |  | 13.3 µM
Nc1ncnc2c1c(-c1cccs1)cn2[C@@H]1O[C@H](CO)[C@@H](O)[C@H]1O | Adenosine kinase |  |  | IC50 | Mycobacterium tuberculosis |  | 6.6 µM
O=Cc1sc(-c2ccccc2)nc1OCc1cnnn1-c1cc2ccc(O)cc2oc1=O | DNA gyrase |  | gel / absorbance | IC50 | Mycobacterium tuberculosis |  | >25 µM